## Potato spindle tuber viroid, loop 15: variant abundance in plants

The pool varies loop 15 of the PSTVd intermediate strain in the pattern GGAAACCGNNNNNNC; wild type is GGAAACCGCUACUAC (upper and lower strand joined, each 5' to 3', the first 7 letters being the upper strand, closing pairs included).

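Three N. benthamiana plants were inoculated with the whole mutant pool. Progeny were sequenced from the inoculated region (day 5), the margin of the inoculated leaf (day 10) and systemic leaves (day 12).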

Numbers give reads per thousand; 0 = not seen among the reads, higher = more abundant. Each site shows the three plants. "Pool" is the share in the plasmid pool used as inoculum, on the same scale. The inoculated region was read from the minus strand, the other sites from the plus strand. The authors trace changes outside the varied positions to PCR and sequencing errors or to mutation in the plant; presence does not show that a variant is infectious alone.

sequence,pool,inoculated region,leaf margin,systemic leaves
GGAAACCGCGAAGCC,0.208,0.0819 0.0964 0.152,0 0 0,0 0 0
GGAAACCGCGAAGGC,0.240,0.0655 0.0964 0.0381,0 0 0.0401,0 0 0
GGAAACCGCGAAGUC,0.256,0.0983 0.145 0.0571,0 0.0223 0,0 0 0
GGAAACCGCGAAUAC,0.288,0.409 0.418 0.343,0.0970 0.0668 0.180,0.0644 0.0454 0.0228
GGAAACCGCGAAUCC,0.272,0.262 0.321 0.438,0.0485 0.111 0.140,0.0483 0 0
GGAAACCGCGAAUGC,0.256,0.409 0.450 0.495,0.129 0.0223 0.120,0.0322 0.0454 0.137
GGAAACCGCGAAUUC,0.192,0.459 0.386 0.438,0.0970 0.0891 0.200,0.113 0.0908 0.182
GGAAACCGCGACAAC,0.208,0.213 0.305 0.362,0.146 0.0891 0.100,0.0483 0.0151 0.0684
GGAAACCGCGACACC,0.320,0.0655 0.0643 0.0762,0.0485 0 0.0200,0 0 0
GGAAACCGCGACAGC,0.288,0.0655 0.0803 0.0571,0 0 0,0 0 0
GGAAACCGCGACAUC,0.192,0.197 0.273 0.152,0.0162 0 0,0 0 0
GGAAACCGCGACCAC,0.336,0.180 0.337 0.362,0.113 0.0445 0.180,0.0483 0.106 0.0456
GGAAACCGCGACCCC,0.400,0.0655 0.0482 0.0952,0.0162 0 0.0200,0.0161 0 0
GGAAACCGCGACCGC,0.160,0.115 0.0482 0.133,0 0 0.0200,0 0 0
GGAAACCGCGACCUC,0.192,0.328 0.418 0.343,0.0647 0.0891 0.140,0.0644 0 0
GGAAACCGCGACGAC,0.160,0.0819 0.0643 0.0762,0 0.0668 0,0.0644 0.0454 0
GGAAACCGCGACGCC,0.288,0.0819 0.0643 0.0952,0 0 0,0 0 0
GGAAACCGCGACGGC,0.384,0.180 0.129 0.133,0.0323 0.0223 0.0200,0.0322 0.0151 0
GGAAACCGCGACGUC,0.304,0.0491 0.161 0.114,0 0 0,0 0 0
GGAAACCGCGACUAC,1.49,1.10 0.578 1.07,1.18 1.05 1.28,1.03 1.04 0.137
GGAAACCGCGACUCC,0.240,0.426 0.225 0.381,0.162 0.111 0.0801,0.113 0.0303 0
GGAAACCGCGACUGC,0.160,0.393 0.353 0.152,0.0808 0.0445 0.100,0.0483 0.106 0.137
GGAAACCGCGACUUC,0.288,0.426 0.257 0.457,0.0970 0.0445 0.160,0 0.0151 0.137
GGAAACCGCGAGAAC,0.224,0.278 0.386 0.400,0.113 0.0223 0.180,0.0322 0.0151 0.0228
GGAAACCGCGAGACC,0.192,0.131 0.0643 0.0762,0 0 0.0200,0 0 0
GGAAACCGCGAGAGC,0.320,0.311 0.305 0.419,0.113 0.156 0.140,0.0322 0 0
GGAAACCGCGAGAUC,0.240,0.328 0.257 0.228,0.146 0.156 0.180,0.0644 0.0756 0.160
GGAAACCGCGAGCAC,0.272,0.213 0.386 0.343,0.0970 0.0668 0.200,0.0483 0.121 0.0912
GGAAACCGCGAGCCC,0.256,0.0164 0.129 0.0381,0 0 0.0200,0.0161 0 0
GGAAACCGCGAGCGC,0.208,0.0819 0.0321 0.190,0 0.0223 0,0 0 0.0228
GGAAACCGCGAGCUC,0.304,0.295 0.241 0.324,0.113 0.0445 0.100,0.0322 0 0
GGAAACCGCGAGGAC,0.160,0.311 0.353 0.324,0.162 0.0891 0.100,0.0644 0.0454 0.160
GGAAACCGCGAGGCC,0.304,0.0491 0.0643 0.0952,0 0.0223 0.0200,0.0161 0 0
GGAAACCGCGAGGGC,0.272,0.295 0.273 0.248,0.129 0.111 0.180,0.0805 0 0
GGAAACCGCGAGGUC,0.0480,0.278 0.418 0.476,0.0485 0.0668 0.160,0.0322 0 0.137
GGAAACCGCGAGUAC,0.192,0.246 0.450 0.400,0.0970 0 0.0801,0.0483 0 0
GGAAACCGCGAGUCC,0.224,0.328 0.273 0.457,0.0485 0.0445 0.120,0.0322 0.0454 0.137
GGAAACCGCGAGUGC,0.112,0.262 0.386 0.381,0.0970 0.134 0.180,0 0.0454 0.0912
GGAAACCGCGAGUUC,0.288,0.278 0.305 0.381,0.162 0.0223 0.240,0.0161 0.0756 0.0912
GGAAACCGCGAUAAC,0.336,0.328 0.289 0.381,0.0485 0.0668 0.120,0.0483 0.0605 0.0912
GGAAACCGCGAUACC,0.320,0.0491 0.112 0.0381,0.0162 0 0,0 0 0
GGAAACCGCGAUAGC,0.304,0.229 0.193 0.133,0 0 0,0 0 0
GGAAACCGCGAUAUC,0.272,0.328 0.273 0.628,0.113 0.134 0.180,0.0483 0.0303 0.0228
GGAAACCGCGAUCAC,0.192,0.213 0.337 0.495,0.0970 0.0668 0.0801,0.0161 0.0605 0.0684
GGAAACCGCGAUCCC,0.304,0.0819 0.0803 0.152,0 0 0.0401,0 0 0
GGAAACCGCGAUCGC,0.240,0.0164 0.0482 0.0571,0.0162 0 0.0200,0 0 0
GGAAACCGCGAUCUC,0.176,0.246 0.289 0.381,0.210 0.111 0.140,0.0483 0 0
GGAAACCGCGAUGAC,0.176,0.0983 0.0643 0.0952,0 0.0223 0.0200,0 0 0
GGAAACCGCGAUGCC,0.208,0.0983 0.129 0.114,0 0 0.0200,0 0 0
GGAAACCGCGAUGGC,0.208,0.0819 0.0803 0.0381,0 0 0,0 0 0

Samples held 43,870 to 66,106 reads, so the smallest values rest on one or two reads. Wild type was 33.9 per thousand in the pool and the most common sequence in every sample (inoculated region 202, 200, 159; leaf margin 724, 746, 710; systemic leaves 856, 883, 880).

Values reported by Wu et al. 2024 (doi:10.1371/journal.ppat.1012142).